# B1: MX838 (other)
# chain 1: QTVVTQEPSFSVSPGGTVTLTCGLSSGSVSTAYFPSWYQQTPGQAPRTLIYGTNTRSSGVPDRFSGSILGNKAALTITGAQADDESDYYCVLYMGRGIVVFGGGTKLTVLGGSSGEIVLTQSPGTLSLSPGERATLSCRASQSVSSSYLAWYQQKPGQAPRLLIYSASSRATGIPDRFSGSGSGTDFTLTISRLEPEDFAVYFCQQYGGLTGWTFGQGTKVEIKGGGGSGGSGSGGGGSASGSGQMQLVQSGPEVKKPGTSVKVSCKASGFTFTSSAVQWVRQRQRLEWIGWIVVGSGNTNYAQKFQERVTITRDMSTSTAYMELSSLRSEDTAVYYCAAPNCSNVVCYDGFDIWGQGTMVTVSSGGSSGQVQLVESGGGVVQPGRSLRLSCAASGFTLSSYGMHWVRQAPGKGLEWVAVISYDGSNKYYVDSVKGRFTISRDNSKNTLYLQMNSLRAEDTAVYYCRWAYWELLPDYYYGMDVWGQGTTVTVSSASGGSGDKTHTCPPCPAPELLGGPSVFLFPPKPKDTLMISRTPEVTCVVVDVSHEDPEVKFNWYVDGVEVHNAKTKPREEQYNSYVVSVLTVLHQDWLNGKEYKCKVSNKALPAPIEKTISKAKGQPREPQVYTLPPCRDELTKNQVSLWCLVKGFYPSDIAVEWESNGQPENNYKTTPPVLDSDGSFFKKLTVDKSRWQQGNVFSCSVLHEALHSHYTQKSLSLSPG
# chain 2: DIQMTQSPSSVSASVGDRVIITCRASQGISSWLAWYQQKPGKAPKVLIYDASSLQSGVPSRFSGSGYGTDFTLTISSLQPEDSATYYCQQAKSFPITFGQGTRLEIKGGSSGEIVLTQSPGTLSLSPGERATLSCRASQSVSSSYLAWYQQKPGQAPRLLIYSASSRATGIPDRFSGSGSGTDFTLTISRLEPEDFAVYFCQQYGGLTGWTFGQGTKVEIKGGGGSGGSGSGGGGSASGSGQMQLVQSGPEVKKPGTSVKVSCKASGFTFTSSAVQWVRQRQRLEWIGWIVVGSGNTNYAQKFQERVTITRDMSTSTAYMELSSLRSEDTAVYYCAAPNCSNVVCYDGFDIWGQGTMVTVSSGGSSGQVQLVESGGGVVQPGRSLRLSCAASGFTFSSYAFHWVRQAPGKGLEWVAVISYDGSNQYYADSVKGRFTISRDNSKNTLYLQMNSLRADDTAVYYCARDLAIAVAGTWHYYNGMDVWGQGTTVTVSSASGGSGDKTHTCPPCPAPELLGGPSVFLFPPKPKDTLMISRTPEVTCVVVDVSHEDPEVKFNWYVDGVEVHNAKTKPREEQYNSYVVSVLTVLHQDWLNGKEYKCKVSNKALPAPIEKTISKAKGQPREPQVCTLPPSRDELTKNQVSLSCAVKGFYPSDIAVEWESNGQPENNYKTTPPVLDSDGSFFLVSKLTVDKSRWQQGNVFSCSVLHEALHSHYTQKSLSLSPG
# How the values were obtained:
# Assay in all cases: cell-based or functional assay
# [1] = target: SARS-CoV-2 spike protein, Omicron sublineage BA.4.7 (R346S, F486V) (SARS-CoV-2, UniProt P0DTC2 14-1273)
# [2] = target: SARS-CoV-2 spike protein, Omicron sublineage BQ.1.1 (R346T, K444T, F486V) (SARS-CoV-2, UniProt P0DTC2 14-1273)
# [3] = target: SARS-CoV-2 spike protein, Omicron sublineage BA.4.6 (R346T, F486V) (SARS-CoV-2, UniProt P0DTC2 14-1273)
# [4] = target: SARS-CoV-2 spike protein, Omicron sublineage BF.7 (R346T, F486V) (SARS-CoV-2, UniProt P0DTC2 14-1273)
# [5] = target: SARS-CoV-2 spike protein, Omicron sublineage BA.1.1 (R346K) (SARS-CoV-2, UniProt P0DTC2 14-1273)
binder,measurement,setting,value
B1,"IC50, pseudovirus neutralization",[1],0.0117 µM
same,"IC80, pseudovirus neutralization",[1],0.0465 µM
same,"IC50, pseudovirus neutralization",[2],5.83 µM
same,"IC80, pseudovirus neutralization",[2],> 10 µM
same,"IC50, pseudovirus neutralization",[3],0.0388 µM
same,"IC80, pseudovirus neutralization",[3],0.115 µM
same,"IC50, pseudovirus neutralization",[4],0.0271 µM
same,"IC80, pseudovirus neutralization",[4],0.132 µM
same,"IC50, pseudovirus neutralization",[5],0.00117 µM
same,"IC80, pseudovirus neutralization",[5],0.00323 µM

# Reference: patent US20240109955A1 (published 2024)
